Laboratory results taken from PMC8765435, “In Vitro Antimalarial Activity of Inhibitors of the Human GTPase Rac1” (Antimicrobial Agents and Chemotherapy, 2022).

System: HMEC-1 human microvascular endothelial cells
Assay: Cell cytotoxicity MTT assay
Assay type: cell-based
Details: ratio IC50 against HMEC-1 cells / IC50 against D10 asexual parasites
Experimental: Cytotoxicity was evaluated on human microvascular endothelial cells (HMEC-1) as detailed in the supplemental material. […] Plates were then read on a microplate reader (Synergy 4; BioTek) at a wavelength of 550 nm (reference, 650 nm). […] All tests were performed in duplicate at least three times.
The selectivity index (SI) is the ratio between the cytotoxic IC50 value against HMEC-1 cells and the parasitic IC50 value against the D10 strain and indicates the compound selectivity for the parasite.
Cytotoxicity was evaluated on Human Microvascular Endothelial Cells (HMEC-1) maintained
and 2 mM L-glutamine. Cells were seeded in 96 well flat bottom tissue culture clusters (1.5x104
cells/well), let adhere overnight and treated with serial dilutions of test compounds . […]

Question: `Cc1cc(C)cc(NC(N)=Nc2ccccc2C(F)(F)F)c1` [Compound 1A116] was tested. Which “SI (selectivity index)” value did it give?
Answer: The value was 41.1.
